Results of unrelated studies side by side (data: NIAID ChemDB).

Common to all: whole-cell or culture tests; organism: HIV-2; cells: MT-4; read-out: EC50

Lines come from different laboratories, so protocols vary.

compound | strain or isolate | mutations | method | setting | value
Cc1cn([C@H]2C[C@H](N=[N+]=[N-])[C@@H](COC(=O)CCC(=O)OCC3OC4OC5C(COS(=O)(=O)O)OC(OC6C(COS(=O)(=O)O)OC(OC7C(COS(=O)(=O)O)OC(OC8C(COS(=O)(=O)O)OC(OC9C(COS(=O)(=O)O)OC(OC3C(OS(=O)(=O)O)C4OS(=O)(=O)O)C(OS(=O)(=O)O)C9OS(=O)(=O)O)C(OS(=O)(=O)O)C8OS(=O)(=O)O)C(OS(=O)(=O)O)C7OS(=O)(=O)O)C(OS(=O)(=O)O)C6OS(=O)(=O)O)C(OS(=O)(=O)O)C5OS(=O)(=O)O)O2)c(=O)[nH]c1=O | ROD |  | cytopathic effect / MTT |  | 4.63 µg/mL
CC(=O)c1ccc(C)cc1NC(C(N)=O)c1c(Cl)cccc1Cl | EHO | RT-E219D | cytopathic effect / MTT |  | 14 µM
Nc1nc2nn(CCOCP(=O)(O)O)nc2c(=O)[nH]1 |  |  | cytopathic effect / MTT |  | >315 µM
Cc1ccc2c(c1)C(=Nc1ccc(S(=O)(=O)Nc3nc(C)cc(C)n3)cc1)C(=O)N2 | ROD |  | cytopathic effect / MTT |  | >125 µg/mL
C/C=C(\C)CC/C=C(\C)CC/C=C(\C)CC/C=C(\C)CC/C=C(\C)CC/C=C(\C)CC/C=C(\C)CC/C=C(\C)CC/C=C(\C)Cn1c(C(=O)c2cccc3ccccc23)c(C(C)C)c(=O)[nH]c1=O | ROD |  | cytopathic effect / MTT |  | >72.01 µM
O=C1Nc2ccc(Cl)cc2S(=O)(=O)n2cccc21 |  |  | cytopathic effect / MTT |  | >100 µM
CCc1c(C(=O)c2cccc3ccccc23)n(COCCOC)c(=O)[nH]c1=O | ROD |  | cytopathic effect / MTT |  | >164 µM
CC(C)(C)[Si](C)(C)OCC1OC(n2nncc2C(=O)N2CCC2)C(O[Si](C)(C)C(C)(C)C)C12OS(=O)(=O)C=C2N | ROD |  | cytopathic effect |  | >50 µM
O=S(=O)(O)c1cc(NS(=O)(=O)c2ccc(-c3ccc(S(=O)(=O)Nc4cc(S(=O)(=O)O)c5cccc(S(=O)(=O)O)c5c4)cc3)cc2)cc2c(S(=O)(=O)O)cccc12 | ROD |  | cytopathic effect / MTT |  | 61 µM
CCCCCNc1nc(N)nc2c1[nH]c[n+]2C[C@@H](C)OCP(=O)(O)O | ROD |  | cytopathic effect / MTT |  | 37.7 ± 5.8 µg/mL
Nc1ccn([C@H]2CC[C@@H](CO)O2)c(=O)n1 | ROD |  | cytopathic effect / MTT |  | 0.118 µM
Cc1ccc(CN2C(=O)CSC2c2c(Cl)cccc2Cl)o1 | ROD |  | cytopathic effect |  | 9.56 µM
Cc1cn([C@H]2C[C@H](N=[N+]=[N-])[C@@H](CO)O2)c(=O)[nH]c1=O | ROD |  | MTT |  | 0.0005 µg/mL
CCCCCCCSc1nsc(NC(=O)Nc2ccccc2)n1 | EHO |  | cytopathic effect |  | 3.7 µM
Nc1nc2c(ncn2CCOCP(=O)(O)O)c(=O)[nH]1 |  |  | cytopathic effect / MTT |  | 0.2 µM
CC(=O)OCC1=C[C@H]2[C@@H]3C(C)(C)[C@]3(OC(=O)Cc3ccccc3)C[C@@H](C)[C@]2(O)[C@@H]2C=C(C)C(=O)[C@@]2(O)C1 | ROD |  | MTT |  | 0.031 µM
Cc1cn([C@H]2C[C@H](N=[N+]=[N-])[C@@H](COC(=O)CCC(=O)OC[C@H]3O[C@@H]4O[C@H]5[C@H](O)[C@@H](O)[C@@H](O[C@H]6[C@H](O)[C@@H](O)[C@@H](O[C@H]7[C@H](O)[C@@H](O)[C@@H](O[C@H]8[C@H](O)[C@@H](O)[C@@H](O[C@H]9[C@H](O)[C@@H](O)[C@@H](O[C@H]3[C@H](O)[C@H]4O)O[C@@H]9CO)O[C@@H]8CO)O[C@@H]7CO)O[C@@H]6CO)O[C@@H]5CO)O2)c(=O)[nH]c1=O | ROD |  | cytopathic effect / MTT |  | 0.038 µg/mL
Clc1nc(Cl)c2c(n1)Oc1nc(Cl)nc(Cl)c1C2c1ccccc1 | ROD |  | cytopathic effect |  | >17.5 µM
Cc1cn([C@H]2C[C@H](N=[N+]=[N-])[C@@H](CO)O2)c(=O)[nH]c1=O | EHO |  | cytopathic effect / MTT |  | 0.0011 µM
C[C@H](CC1CNC2C(N)=NC(N)NC12)OCP(=O)(O)O | ROD |  | cytopathic effect / MTT |  | 47.7 ± 7 µg/mL
c1cc(CN2CCCNCCNCCCNCC2)ccc1CN1CCCNCCNCCCNCC1 | ROD |  | MTT |  | 0.001 µg/mL
CC(C)(C)[Si](C)(C)OCC1OC(n2nncc2C(=O)NC2CCC2)C(O[Si](C)(C)C(C)(C)C)C12OS(=O)(=O)C=C2N | ROD |  | cytopathic effect |  | >250 µM
COc1nc(=O)[nH]c2c1C(c1ccc(Br)cc1)c1c(OC)nc(=O)[nH]c1O2 | EHO |  | cytopathic effect |  | >309 µM
CC(=O)O[C@@]12C[C@@H](C)[C@@]3(O)[C@@H](C=C(CO)C[C@]4(O)C(=O)C(C)=C[C@@H]34)[C@@H]1C2(C)C | ROD |  | cytopathic effect / MTT |  | 0.02 µg/mL
CCCCNc1nc(N)nc2c1[nH]c[n+]2C[C@@H](C)OCP(=O)(O)O | ROD |  | cytopathic effect / MTT |  | 9.8 ± 4.9 µg/mL
C=CCN1C(=O)c2cccn2S(=O)(=O)c2cc(Cl)ccc21 |  |  | cytopathic effect / MTT |  | >100 µM
CCCN(C)c1nc(N)nc2c1[nH]c[n+]2C[C@@H](C)OCP(=O)(O)O | ROD |  | cytopathic effect / MTT |  | 55.9 ± 14 µg/mL
O=c1[nH]cnc2c1ncn2[C@H]1CC[C@@H](CO)O1 | ROD |  | cytopathic effect / MTT |  | 2.71 µM
Cc1cn([C@H]2C[C@H](F)[C@@H](CO)O2)c(=O)[nH]c1=O | LAV-2 |  | cytopathic effect |  | 0.015 µM
Cc1cn([C@H]2C[C@H](N=[N+]=[N-])[C@@H](CO)O2)c(=O)[nH]c1=O | ROD |  | MTT |  | 0.006 µM
COC(=O)C(Cc1ccccc1)NC(=O)[C@@H](NC(=O)[C@@H](C[C@H](O)[C@H](CC1CCCCC1)NC(=O)[C@@H](NC(=O)[C@H](Cc1ccccc1)CS(=O)(=O)C(C)(C)C)C(C)C)C(C)C)C(C)C | EHO |  | cytopathic effect / MTT |  | 9 µM
Cc1cn([C@H]2C[C@H](N=[N+]=[N-])[C@@H](CO)O2)c(=O)[nH]c1=O | ROD |  | cytopathic effect / MTT |  | 0.00062 µg/mL
Cc1cn([C@H]2C=C[C@@H](CO)O2)c(=O)[nH]c1=O | ROD |  | trypan blue | 5 d | 0.77 µM
Cc1cc(C)nc(NS(=O)(=O)c2ccc(N=C3C(=O)Nc4ccc(Cl)cc43)cc2)n1 | ROD |  | cytopathic effect / MTT |  | 118 µg/mL
O=S(=O)(O)c1cc(O)c2c(NS(=O)(=O)c3ccc(-c4ccc(S(=O)(=O)Nc5cc(S(=O)(=O)O)cc6cc(S(=O)(=O)O)cc(O)c56)cc4)cc3)cc(S(=O)(=O)O)cc2c1 | ROD |  | cytopathic effect / MTT |  | 23 µM
Cc1cn([C@H]2C[C@H](N=[N+]=[N-])[C@@H](CO)O2)c(=O)[nH]c1=O | LAV-2 |  | cytopathic effect |  | 0.004 µM
COc1ccc(CN[C@@H](C(=O)N[C@H](C(=O)NCc2nc3ccccc3[nH]2)C(C)C)[C@H](O)[C@H](Cc2ccccc2)NC(=O)[C@@H](NC(=O)[C@@](C)(O)c2ccccc2)C(C)(C)C)cc1 | EHO |  | p24 |  | 0.47 µM
CCOP(=O)(O)COCCn1nnc2c(=O)[nH]c(N)nc21 |  |  | cytopathic effect / MTT |  | >315 µM
C=C1[C@H](CO)[C@@H](O)C[C@@H]1n1cnc2c(=O)[nH]c(N)nc21 | ROD |  | MTT |  | >27.78 µM
CC(C)CNc1nc(N)nc2c1ncn2CCOCP(=O)(O)O | ROD |  | cytopathic effect / MTT |  | >0.16 µg/mL
COc1nc(=O)[nH]c2c1C(c1ccc(Cl)cc1)c1c(OC)nc(=O)[nH]c1O2 | ROD |  | cytopathic effect |  | >347 µM
CCC(C)Nc1nc(N)nc2c1[nH]c[n+]2C[C@@H](C)OCP(=O)(O)O | ROD |  | cytopathic effect / MTT |  | 25 ± 15 µg/mL
O=c1ccn([C@H]2C[C@H](F)[C@@H](CO)O2)c(=O)[nH]1 | LAV-2 |  | cytopathic effect |  | 0.16 µM
Nc1ncnc2nnn(CCOCP(=O)(O)O)c12 |  |  | cytopathic effect / MTT |  | >365 µM
CCCC(=O)O[C@@]12C[C@@H](C)[C@@]3(O)[C@@H](C=C(COC(C)=O)C[C@]4(O)C(=O)C(C)=C[C@@H]34)[C@@H]1C2(C)C | ROD |  | MTT |  | 0.2 µM
CN(C)c1ccc(C2SCC(=O)N2Cc2ccco2)cc1 | ROD |  | cytopathic effect |  | 11.5 µM
CCc1cc(NCc2nc3c(Cl)ccc(Cl)c3o2)c(=O)[nH]c1C | EHO | RT-S102L | cytopathic effect / MTT |  | >71 µM
C=CCN1C(=O)c2cccn2S(=O)(=O)c2ccccc21 |  |  | cytopathic effect / MTT |  | >100 µM
CC(C)NC(=O)c1cnnn1C1OC(CO[Si](C)(C)C(C)(C)C)C2(OS(=O)(=O)C=C2N)C1O[Si](C)(C)C(C)(C)C | ROD |  | cytopathic effect |  | >250 µM
Cc1cn([C@H]2C[C@H](N=[N+]=[N-])[C@@H](COC(=O)CCC(=O)OC[C@H]3O[C@@H]4O[C@H]5[C@H](O)[C@@H](O)[C@@H](O[C@H]6[C@H](O)[C@@H](O)[C@@H](O[C@H]7[C@H](O)[C@@H](O)[C@@H](O[C@H]8[C@H](O)[C@@H](O)[C@@H](O[C@H]9[C@H](O)[C@@H](O)[C@@H](O[C@H]%10[C@H](O)[C@@H](O)[C@@H](O[C@H]3[C@H](O)[C@H]4O)O[C@@H]%10CO)O[C@@H]9CO)O[C@@H]8CO)O[C@@H]7CO)O[C@@H]6CO)O[C@@H]5CO)O2)c(=O)[nH]c1=O | ROD |  | cytopathic effect / MTT |  | 0.0575 µg/mL
Cc1nc(N2C(=O)CSC2c2c(Cl)cccc2Cl)ccc1Br | ROD |  | cytopathic effect |  | 9.74 µM
CCc1c(C(=O)c2cccc3ccccc23)n(COC)c(=O)[nH]c1=O | ROD |  | cytopathic effect / MTT |  | >34.35 µM
CC(C)(C)[Si](C)(C)OCC1OC(n2nncc2C(=O)NC2CCCC2)C(O[Si](C)(C)C(C)(C)C)C12OS(=O)(=O)C=C2N | ROD |  | cytopathic effect |  | >250 µM
CC1SC(c2c(F)cccc2F)N(Cc2ccco2)C1=O | ROD |  | cytopathic effect |  | 30 µM
CCc1c(C(=O)c2cccc3ccccc23)n(Cc2ccccc2)c(=O)[nH]c1=O | ROD |  | cytopathic effect / MTT |  | >33.67 µM

The first 4 rows once more:

| compound | strain or isolate | mutations | method | setting | value |
|---|---|---|---|---|---|
| Cc1cn([C@H]2C[C@H](N=[N+]=[N-])[C@@H](COC(=O)CCC(=O)OCC3OC4OC5C(COS(=O)(=O)O)OC(OC6C(COS(=O)(=O)O)OC(OC7C(COS(=O)(=O)O)OC(OC8C(COS(=O)(=O)O)OC(OC9C(COS(=O)(=O)O)OC(OC3C(OS(=O)(=O)O)C4OS(=O)(=O)O)C(OS(=O)(=O)O)C9OS(=O)(=O)O)C(OS(=O)(=O)O)C8OS(=O)(=O)O)C(OS(=O)(=O)O)C7OS(=O)(=O)O)C(OS(=O)(=O)O)C6OS(=O)(=O)O)C(OS(=O)(=O)O)C5OS(=O)(=O)O)O2)c(=O)[nH]c1=O | ROD |  | cytopathic effect / MTT |  | 4.63 µg/mL |
| CC(=O)c1ccc(C)cc1NC(C(N)=O)c1c(Cl)cccc1Cl | EHO | RT-E219D | cytopathic effect / MTT |  | 14 µM |
| Nc1nc2nn(CCOCP(=O)(O)O)nc2c(=O)[nH]1 |  |  | cytopathic effect / MTT |  | >315 µM |
| Cc1ccc2c(c1)C(=Nc1ccc(S(=O)(=O)Nc3nc(C)cc(C)n3)cc1)C(=O)N2 | ROD |  | cytopathic effect / MTT |  | >125 µg/mL |

An empty or dashed field is not shown. ECn is the concentration giving n% inhibition of infection, replication or growth.